Pooled drug test results. Numbers come from NIAID ChemDB, via PubChem.

Common to all: tests in culture

MIC50, MIC90 and the like: level of inhibition, or share of isolates inhibited.

compound,cell line,method,strain or isolate,read-out,organism,dose,value
CCC(CC)O[C@@H]1C=C(C(=O)O)C[C@H](N)[C@H]1NC(C)=O,MDCK,,B/Harbin/07.94,EC50,Influenza B virus,,0.26 µM
Nc1nc(=O)n([C@@H]2O[C@H](CO)[C@@H](O)[C@@H]2F)cc1I,HELF,plaque count,Asahikawa,inhibition,Varicella zoster virus,0.1 µg/mL,81%
O=C(Nc1cc(S(=O)(=O)[O-])cc2cc(S(=O)(=O)[O-])ccc12)c1ccccc1,Human amnion AV3 cells,cytopathic effect,,inhibition,Herpes simplex virus,50 µg/mL,0%
O=C(CC(=O)Nc1cc(C(F)(F)F)cc(C(F)(F)F)c1)Nc1cc(C(F)(F)F)cc(C(F)(F)F)c1,,,KL21,MIC,Klebsiella pneumoniae,,>300 µM
O=c1[nH]c(=O)n([C@H]2C[C@H](O)[C@@H](CO)O2)cc1/C=C/Br,HELF,plaque count,Ohtomo,inhibition,Varicella zoster virus,0.1 µg/mL,100%
Cc1cc(-c2ccc(N=Nc3c(N)c(S(=O)(=O)O)cc4cc(S(=O)(=O)O)ccc34)c(C)c2)ccc1N=Nc1c(N)ccc2cc(S(=O)(=O)O)ccc12,Human amnion AV3 cells,cytopathic effect,,inhibition,Rhinovirus,10 µg/mL,0%
C/C=C\[C@@H]1C[C@H](C(=O)O)N[C@H]1[C@@H](NC(C)=O)[C@](C)(CCC)OC,MDCK,plaque count,H1N1 isolate C23D,EC50,Influenza A virus,,0.01 µg/mL
C=CCc1ccc(O)c(OC)c1,,turbidity,2383,MIC90,Candida parapsilosis,,500 µg/mL
O=C(O)c1cc(S(=O)(=O)[O-])ccc1O,Human embryonic lung cells,cytopathic effect,TYPE 3,inhibition,Adenovirus,10 µg/mL,5%
Cc1nc(NCCCCNc2ccnc3cc(Cl)ccc23)nc(-c2ccccc2)c1C(=O)OC(C)C,,,23/10993,MIC99,Cryptococcus gattii,,5.7 µg/mL
Nc1ccccc1S(=O)(=O)O,Human amnion AV3 cells,cytopathic effect,,inhibition,Herpes simplex virus,5 µg/mL,20%
O=C(Nc1cc(C(F)(F)F)cc(C(F)(F)F)c1)Nc1cc(C(F)(F)F)cc(C(F)(F)F)c1,,,ES142,MIC,Escherichia coli,,>300 µM
CC(C)(O)c1cn(-c2ccccc2)nn1,,broth dilution,URM 4127,inhibition,Candida albicans,2048 µg/mL,0%
O=[N+]([O-])c1ccc(C=Nc2ccccc2O)cc1,,,L24/01,MIC99,Cryptococcus gattii,,16 µg/mL
CCO/N=C/c1ccc(OCCC2CCN(c3ccc(Cl)nn3)CC2)cc1,KB,neutral red,FO2-3607 (sialoprotein receptor group 87),EC50,Rhinovirus,,2.32 µM
O=C1C(c2[nH]c3ccc(S(=O)(=O)O)cc3c2O)=Nc2ccc(S(=O)(=O)O)cc21,Human amnion AV3 cells,cytopathic effect,TYPE 3,inhibition,Adenovirus,50 µg/mL,0%
Cc1cc(CCCOc2c(C)cc(-c3noc(C(F)(F)F)n3)cc2C)on1,OHIO HELA-I,cytopathic effect / visual reading,Isolate 38,EC50,Rhinovirus,,0.05 µg/mL
O=c1[nH]c(=O)n([C@@H]2O[C@H](CO)[C@@H](O)[C@@H]2O)cc1/C=C/Cl,HELF,plaque count,HIRAI,inhibition,Varicella zoster virus,0.001 µg/mL,97%
O=C(Nc1ccc(S(=O)(=O)[O-])c2cccc(S(=O)(=O)[O-])c12)c1ccccc1,Human amnion AV3 cells,cytopathic effect,TYPE 3,inhibition,Adenovirus,50 µg/mL,0%
O=c1[nH]c(=O)n([C@H]2C[C@H](O)[C@@H](CO)O2)cc1I,HELF,plaque count,OKA,inhibition,Varicella zoster virus,0.1 µg/mL,3%
CC(C)(O)c1cn(-c2cccc3ccccc23)nn1,,broth dilution,URM 4984,inhibition,Candida parapsilosis,2048 µg/mL,0%
CCC(O)CN(NC(=O)Nc1cc(C(F)(F)F)cc(C(F)(F)F)c1)C(=O)Nc1cc(C(F)(F)F)cc(C(F)(F)F)c1,,,KL21,MIC,Klebsiella pneumoniae,,>300 µM
Oc1ccccc1N=Cc1cccc(O)c1O,,,ATCC 62066,MIC99,Cryptococcus neoformans,,2 µg/mL
O=S(=O)([O-])c1ccc(O)c2ccccc12,Human conjunctiva cells,cytopathic effect,,inhibition,Herpes simplex virus,10 µg/mL,0%
O=C(NNC(=O)Nc1cc(C(F)(F)F)cc(C(F)(F)F)c1)Nc1cccc(C(F)(F)F)c1,,,ES142,MIC,Escherichia coli,,>300 µM
Oc1ccccc1N=Cc1ccc(O)c(O)c1O,,,547/OTTI-97-PI-10,MIC99,Cryptococcus gattii,,22.6 µg/mL
CC(C)(O)c1cn(-c2ccc3ccccc3c2)nn1,,broth dilution,URM 4609,inhibition,Candida albicans,2048 µg/mL,0%
O=c1[nH]c(=O)n([C@@H]2O[C@H](CO)[C@@H](O)[C@@H]2O)cc1/C=C/Br,HELF,plaque count,KANNO,inhibition,Varicella zoster virus,0.001 µg/mL,100%
Cn1cc(C(=O)NCc2ccc(Cl)cc2)c(=O)c2cc(CN3CCOCC3)ccc21,HFF,plaque count,LY,inhibition,Human cytomegalovirus,6.4 µM,90%
O=S(=O)([O-])c1cc(NS(=O)(=O)c2ccccc2)c2c(S(=O)(=O)[O-])cc(S(=O)(=O)[O-])cc2c1,Human embryonic lung cells,cytopathic effect,,inhibition,Rhinovirus,50 µg/mL,80%
Cc1ccc(-n2cc(C(C)(C)O)nn2)cc1C,,broth dilution,URM 4802,inhibition,Candida krusei,2048 µg/mL,0%
O=S(=O)([O-])c1ccccc1S(=O)(=O)[O-],Human embryonic lung cells,cytopathic effect,TYPE 3,inhibition,Adenovirus,50 µg/mL,0%
CCOC(=O)c1c(C)nc(NCCCCNc2ccnc3cc(Cl)ccc23)nc1-c1ccc(F)cc1,,,LMM 818,MIC99,Cryptococcus gattii,,11.3 µg/mL

For reference, 5 entries again:

compound | cell line | method | strain or isolate | read-out | organism | dose | value
Cn1cc(C(=O)NCc2ccc(Cl)cc2)c(=O)c2cc(CN3CCOCC3)ccc21 | HFF | plaque count | LY | inhibition | Human cytomegalovirus | 6.4 µM | 90%
Nc1ccccc1S(=O)(=O)O | Human amnion AV3 cells | cytopathic effect |  | inhibition | Herpes simplex virus | 5 µg/mL | 20%
C=CCc1ccc(O)c(OC)c1 |  | turbidity | 2383 | MIC90 | Candida parapsilosis |  | 500 µg/mL
O=C(O)c1cc(S(=O)(=O)[O-])ccc1O | Human embryonic lung cells | cytopathic effect | TYPE 3 | inhibition | Adenovirus | 10 µg/mL | 5%
O=c1[nH]c(=O)n([C@H]2C[C@H](O)[C@@H](CO)O2)cc1I | HELF | plaque count | OKA | inhibition | Varicella zoster virus | 0.1 µg/mL | 3%

ECn is the concentration giving n% inhibition of infection, replication or growth. An empty or dashed field is not shown. Percent inhibition refers to the dose given; in toxicity tests it is the harm to the cells. Rows are shuffled and stem from different studies.